Reference: patent US10752656B2, “Anti-microbial supramolecular structures” (Northwestern University, priority 2016, dated 2020)
Entries after “also recorded” stand apart in the source; their conditions may differ. Non-standard residues stand in square brackets, D forms with d. Residues, ends and D or L forms follow the SMILES beside them. *: point of attachment. Phe(F5) = N[C@@H](Cc1c(F)c(F)c(F)c(F)c1F)C(=O)O; Palmitoyl = CCCCCCCCCCCCCCCC(=O)*

How the values were obtained:
[1] = Absorption of PAs by artificial lipid bilayer (QCM-D); settings: for absorbed amount by the lipid bilayer: as a function of the concentration of the solutions; for energy dissipation on absorption: compared to parent PA and PA Z1
[2] = Fluorescence microscopy of supported lipid bilayers treated with the PAs; settings: after absorption of the PA and rinsing

Row | SMILES | absorbed amount by the lipid bilayer [1] | structure of the lipid bilayer after rinsing with buffer solution [2] | energy dissipation on absorption [1]
1 | CCCCCCCCCCCCCCCC(=O)N[C@H](C(=O)N[C@H](C(=O)N[C@H](C(=O)N[C@@H](C)C(=O)N[C@@H](C)C(=O)N[C@@H](C)C(=O)N[C@@H](CCC(=O)O)C(=O)N[C@@H](CCC(=O)O)C(=O)N[C@@H](CCC(=O)O)C(N)=O)C(C)C)C(C)C)C(C)C [parent PA, reference compound] (Palmitoyl-VVVAAAEEE-NH2; C-terminus assumed) | efficiently absorbed; also recorded: efficient uptake | more or less intact | –
2 | CCCCCCCCCCCCCCCC(=O)N[C@H](C(=O)N[C@@H](Cc1c(F)c(F)c(F)c(F)c1F)C(=O)N[C@H](C(=O)N[C@@H](C)C(=O)N[C@@H](C)C(=O)N[C@@H](C)C(=O)N[C@@H](CCC(=O)O)C(=O)N[C@@H](CCC(=O)O)C(=O)N[C@@H](CCC(=O)O)C(N)=O)C(C)C)C(C)C [PA Z2] (Palmitoyl-V[Phe(F5)]VAAAEEE-NH2; C-terminus assumed) | efficiently absorbed; also recorded: efficient uptake | formation of many dark pores | large energy dissipation
3 | CCCCCCCCCCCCCCCC(=O)N[C@H](C(=O)N[C@H](C(=O)N[C@@H](Cc1c(F)c(F)c(F)c(F)c1F)C(=O)N[C@@H](C)C(=O)N[C@@H](C)C(=O)N[C@@H](C)C(=O)N[C@@H](CCC(=O)O)C(=O)N[C@@H](CCC(=O)O)C(=O)N[C@@H](CCC(=O)O)C(N)=O)C(C)C)C(C)C [PA Z3] (Palmitoyl-VV[Phe(F5)]AAAEEE-NH2; C-terminus assumed) | poor absorption | more or less intact; also recorded: formation of many dark pores | large energy dissipation
4 | CCCCCCCCCCCCCCCC(=O)N[C@@H](Cc1c(F)c(F)c(F)c(F)c1F)C(=O)N[C@H](C(=O)N[C@H](C(=O)N[C@@H](C)C(=O)N[C@@H](C)C(=O)N[C@@H](C)C(=O)N[C@@H](CCC(=O)O)C(=O)N[C@@H](CCC(=O)O)C(=O)N[C@@H](CCC(=O)O)C(N)=O)C(C)C)C(C)C [PA Z1] (Palmitoyl-[Phe(F5)]VVAAAEEE-NH2; C-terminus assumed) | efficiently absorbed | – | –
